Test [1] concerns the target Sodium channel protein type 2 subunit alpha (Rattus norvegicus) (UniProt P04775). Nature of the test: Inhibition of rat voltage-gated sodium channel Nav1.2-mediated current expressed in Xenopus laevis oocytes at 10 uM by two-electrode voltage-clamp electrophysiology relative to control. The following applies: Oocyte. In general terms: Two-electrode voltage clamp is typically applied to oocytes expressing channels or transporters.

Sequences of proteins named here, by UniProt entry; tags and fusion partners are left off.
UniProt P04775, whole entry: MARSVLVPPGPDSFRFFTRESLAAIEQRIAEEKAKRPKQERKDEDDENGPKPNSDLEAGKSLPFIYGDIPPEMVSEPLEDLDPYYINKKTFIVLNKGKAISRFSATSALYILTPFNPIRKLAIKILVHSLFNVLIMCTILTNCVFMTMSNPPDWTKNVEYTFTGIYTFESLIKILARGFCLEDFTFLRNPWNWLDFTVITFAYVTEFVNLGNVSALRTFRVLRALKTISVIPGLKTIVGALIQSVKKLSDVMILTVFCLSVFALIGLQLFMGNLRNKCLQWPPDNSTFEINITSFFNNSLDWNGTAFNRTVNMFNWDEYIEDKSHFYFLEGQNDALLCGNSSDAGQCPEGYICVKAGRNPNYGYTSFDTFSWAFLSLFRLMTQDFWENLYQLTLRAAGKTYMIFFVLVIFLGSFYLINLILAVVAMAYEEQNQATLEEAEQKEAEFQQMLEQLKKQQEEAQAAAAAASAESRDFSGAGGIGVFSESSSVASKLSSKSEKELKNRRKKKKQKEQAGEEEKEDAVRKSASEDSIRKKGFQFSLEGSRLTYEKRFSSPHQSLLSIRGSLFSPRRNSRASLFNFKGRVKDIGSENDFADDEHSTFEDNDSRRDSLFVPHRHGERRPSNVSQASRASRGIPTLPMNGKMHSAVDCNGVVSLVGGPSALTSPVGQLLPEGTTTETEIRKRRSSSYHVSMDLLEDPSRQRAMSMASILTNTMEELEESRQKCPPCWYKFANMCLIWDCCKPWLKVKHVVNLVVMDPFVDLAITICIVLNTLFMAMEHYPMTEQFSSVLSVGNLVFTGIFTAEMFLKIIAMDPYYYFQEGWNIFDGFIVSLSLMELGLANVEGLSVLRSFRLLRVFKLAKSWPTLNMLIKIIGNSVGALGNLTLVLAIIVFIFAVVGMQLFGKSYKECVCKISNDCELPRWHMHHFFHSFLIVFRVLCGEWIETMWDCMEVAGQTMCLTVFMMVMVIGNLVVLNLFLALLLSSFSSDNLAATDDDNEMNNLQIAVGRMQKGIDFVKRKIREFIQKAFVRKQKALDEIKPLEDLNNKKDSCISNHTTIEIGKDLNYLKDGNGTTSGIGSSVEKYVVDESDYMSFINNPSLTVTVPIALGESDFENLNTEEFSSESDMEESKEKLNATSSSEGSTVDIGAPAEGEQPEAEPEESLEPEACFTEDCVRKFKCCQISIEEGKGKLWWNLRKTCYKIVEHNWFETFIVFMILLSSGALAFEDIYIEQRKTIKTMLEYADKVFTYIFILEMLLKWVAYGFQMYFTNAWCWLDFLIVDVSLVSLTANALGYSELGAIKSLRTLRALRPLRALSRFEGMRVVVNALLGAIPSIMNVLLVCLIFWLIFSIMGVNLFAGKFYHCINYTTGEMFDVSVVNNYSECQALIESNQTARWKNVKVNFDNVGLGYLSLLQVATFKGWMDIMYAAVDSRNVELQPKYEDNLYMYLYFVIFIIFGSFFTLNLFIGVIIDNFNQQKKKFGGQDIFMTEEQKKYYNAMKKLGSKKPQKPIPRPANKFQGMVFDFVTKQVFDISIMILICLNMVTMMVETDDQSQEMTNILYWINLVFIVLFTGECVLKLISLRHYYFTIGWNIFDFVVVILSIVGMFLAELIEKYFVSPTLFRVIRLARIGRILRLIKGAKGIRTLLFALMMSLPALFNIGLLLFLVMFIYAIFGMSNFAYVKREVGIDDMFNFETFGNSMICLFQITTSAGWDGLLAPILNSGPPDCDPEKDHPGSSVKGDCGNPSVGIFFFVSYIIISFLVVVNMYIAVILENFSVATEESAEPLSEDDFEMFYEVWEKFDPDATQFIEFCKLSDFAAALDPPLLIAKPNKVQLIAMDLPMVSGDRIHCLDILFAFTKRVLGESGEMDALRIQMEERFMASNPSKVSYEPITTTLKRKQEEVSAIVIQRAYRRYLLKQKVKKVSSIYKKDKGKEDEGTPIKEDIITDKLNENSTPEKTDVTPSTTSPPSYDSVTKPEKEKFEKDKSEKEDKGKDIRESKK

Test [2] has the same target. Nature of the test: Inhibition of rat voltage-gated sodium channel Nav1.2-mediated current expressed in Xenopus laevis oocytes at >10 uM by two-electrode voltage-clamp electrophysiology relative to control. The following applies: Oocyte.

The values below come from ChEMBL document CHEMBL2401726, “Expanding chemical diversity of conotoxins: peptoid-peptide chimeras of the sodium channel blocker μ-KIIIA and its selenopeptide analogues” (2013).

By inhibition is commonly meant the relative decrease from the control value, in per cent. A higher inhibition goes with a strong effect.

As to `CCCCCCCCN1CC(=O)N[C@@H](Cc2c[nH]c3ccccc23)C(=O)N[C@H]2CSSC[C@H](N)C(=O)N[C@H]3CSSC[C@H](NC(=O)[C@H](CCCNC(=N)N)NC(=O)[C@H](CO)NC(=O)[C@H](Cc4cnc[nH]4)NC(=O)[C@H](CC(=O)O)NC(=O)[C@H](CCCNC(=N)N)NC2=O)C(=O)N[C@H](C(N)=O)CSSC[C@H](NC(=O)[C@H](CC(N)=O)NC3=O)C(=O)N[C@@H](CO)C(=O)N[C@@H](CO)C1=O`, in test [1], the inhibition was found to be 80%.
With `CN1CC(=O)N[C@@H](Cc2c[nH]c3ccccc23)C(=O)N[C@H]2CSSC[C@H](N)C(=O)N[C@H]3CSSC[C@H](NC(=O)[C@H](CCCNC(=N)N)NC(=O)[C@H](CO)NC(=O)[C@H](Cc4cnc[nH]4)NC(=O)[C@H](CC(=O)O)NC(=O)[C@H](CCCNC(=N)N)NC2=O)C(=O)N[C@H](C(N)=O)CSSC[C@H](NC(=O)[C@H](CC(N)=O)NC3=O)C(=O)N[C@@H](CO)C(=O)N[C@@H](CO)C1=O`, the inhibition in test [2] came to 70%; in test [1], 69%.
Compound `CCCCN1CC(=O)N[C@@H](Cc2c[nH]c3ccccc23)C(=O)N[C@H]2CSSC[C@H](N)C(=O)N[C@H]3CSSC[C@H](NC(=O)[C@H](CCCNC(=N)N)NC(=O)[C@H](CO)NC(=O)[C@H](Cc4cnc[nH]4)NC(=O)[C@H](CC(=O)O)NC(=O)[C@H](CCCNC(=N)N)NC2=O)C(=O)N[C@H](C(N)=O)CSSC[C@H](NC(=O)[C@H](CC(N)=O)NC3=O)C(=O)N[C@@H](CO)C(=O)N[C@@H](CO)C1=O` came in with an inhibition in test [1] of 82%.
